{"source": "PubChem BioAssay AID1259414 (Drosophila RNAi Screening Center, 2018)", "aim": "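Fly genes that alter Wolbachia amount inside host cells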 (primary screen)", "system": "Drosophila JW18 cells infected with Wolbachia", "reagent": "long dsRNA against Drosophila genes, 0.25 µg dsRNA per well of a 384-well plate", "time to read-out": "5 days", "conditions": "cells persistently infected with Wolbachia before knock-down; no added drug", "measurement": "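Imaged fluorescence in situ signal for Wolbachia 23S rRNA per DAPI-counted host cell, given as a robust z-score within each plate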", "scale": "Wolbachia per cell robust z: higher = more Wolbachia per host cell than the plate typical", "hit rule": "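Active if absolute robust z reaches 1.5 in two or more of three replicates, leaving out multi- or no-target dsRNAs, genes unexpressed in JW18 and A1 wells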", "note": "The deposit covers about 24,000 reagents; this is a random part of those that have a named target and a result. Of all reagents, about 1,210 (5%) were called active. 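Inactive calls also include excluded dsRNAs with several or no targets, genes unexpressed in JW18, and well A1, regardless of score.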 Entries without a mark were called inactive. A plus sign joins genes that one reagent is predicted to hit."}
The first 2 entries as a preview:
{"gene":"CG18170 + CG12105 + CG33791","DRSC id":"DRSC08387","Wolbachia per cell robust z, rep 1":1.23,"Wolbachia per cell robust z, rep 2":-0.517,"Wolbachia per cell robust z, rep 3":1.1}
{"gene":"xmas-1 (retired record)","DRSC id":"DRSC20386","Wolbachia per cell robust z, rep 1":-0.524,"Wolbachia per cell robust z, rep 2":-0.42,"Wolbachia per cell robust z, rep 3":-0.351}

The list itself, from the start:
{"gene":"CG18170 + CG12105 + CG33791","DRSC id":"DRSC08387","Wolbachia per cell robust z, rep 1":1.23,"Wolbachia per cell robust z, rep 2":-0.517,"Wolbachia per cell robust z, rep 3":1.1}
{"gene":"xmas-1 (retired record)","DRSC id":"DRSC20386","Wolbachia per cell robust z, rep 1":-0.524,"Wolbachia per cell robust z, rep 2":-0.42,"Wolbachia per cell robust z, rep 3":-0.351}
{"gene":"xmas-1 (retired record)","DRSC id":"DRSC24501","Wolbachia per cell robust z, rep 1":0.342,"Wolbachia per cell robust z, rep 2":-1.01,"Wolbachia per cell robust z, rep 3":-0.15}
{"gene":"CG11041","DRSC id":"DRSC06025","Wolbachia per cell robust z, rep 1":-3.42,"Wolbachia per cell robust z, rep 2":-1.13,"Wolbachia per cell robust z, rep 3":0.387}
{"gene":"CG11041","DRSC id":"DRSC29269","Wolbachia per cell robust z, rep 1":-5.13,"Wolbachia per cell robust z, rep 2":-2.54,"Wolbachia per cell robust z, rep 3":-1.12}
{"gene":"CG13562","DRSC id":"DRSC04200","Wolbachia per cell robust z, rep 1":0.086,"Wolbachia per cell robust z, rep 2":1.37,"Wolbachia per cell robust z, rep 3":1.02}
{"gene":"CG13562","DRSC id":"DRSC28501","Wolbachia per cell robust z, rep 1":-0.506,"Wolbachia per cell robust z, rep 2":-0.772,"Wolbachia per cell robust z, rep 3":-1.33}
{"gene":"CG33110","DRSC id":"DRSC16137","Wolbachia per cell robust z, rep 1":-5.82,"Wolbachia per cell robust z, rep 2":-1.3,"Wolbachia per cell robust z, rep 3":-3.89}
{"gene":"CG33110","DRSC id":"DRSC27221","Wolbachia per cell robust z, rep 1":-0.256,"Wolbachia per cell robust z, rep 2":-1.69,"Wolbachia per cell robust z, rep 3":-0.525}
{"gene":"mri (mrityu)","DRSC id":"DRSC08259","Wolbachia per cell robust z, rep 1":"-1.77 (active)","Wolbachia per cell robust z, rep 2":0.519,"Wolbachia per cell robust z, rep 3":-4.66}
{"gene":"mri (mrityu)","DRSC id":"DRSC27787","Wolbachia per cell robust z, rep 1":0.36,"Wolbachia per cell robust z, rep 2":0.131,"Wolbachia per cell robust z, rep 3":0.431}
{"gene":"Klp67A + CG34456","DRSC id":"DRSC10420","Wolbachia per cell robust z, rep 1":-3.51,"Wolbachia per cell robust z, rep 2":0.149,"Wolbachia per cell robust z, rep 3":0.0212}
